From US6441132B1, “Contryphan peptides” (dated 2002) come the findings set out here.

Each structure is given as a SMILES string.

For the data set, the system named is mice (9 to 21 days old). Briefly: Bioassay by intracranial injection in mice. The following applies: High dose: 8-20 nmole/g.

In the case of `NCC(=O)N[C@H]1CSSC[C@@H](C(N)=O)NC(=O)[C@H](Cc2c[nH]c3ccccc23)NC(=O)[C@@H]2CCCN2C(=O)[C@H](CCC(=O)O)NC(=O)[C@@H](Cc2c[nH]c3ccccc23)NC(=O)[C@@H]2C[C@@H](O)CN2C1=O`, the “Activity (bioactivity on intracranial injection)” value is given as “Paralysis of extremities, circular motion,”.
